Experimental data: ChEMBL document CHEMBL1129997 (J Med Chem, 1997)

The molecules below were run against T1, Modulator of drug activity A (Escherichia coli O157:H7) (UniProt Q8X6S1) (assay: IC50 ratio for NR-positive and NR-negative cell lines).
T1 sequence (whole entry): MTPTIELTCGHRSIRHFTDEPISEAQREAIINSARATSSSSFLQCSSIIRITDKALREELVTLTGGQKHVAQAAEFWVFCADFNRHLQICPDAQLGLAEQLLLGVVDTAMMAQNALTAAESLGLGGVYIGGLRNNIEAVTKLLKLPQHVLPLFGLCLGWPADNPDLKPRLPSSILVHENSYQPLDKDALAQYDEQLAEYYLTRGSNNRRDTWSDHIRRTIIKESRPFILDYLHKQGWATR
Type: functional

Compound	Ratio
NC(=O)c1cc([N+](=O)[O-])cc([N+](=O)[O-])c1N(CCI)CCI	580
O=C(NCC(O)CO)c1cc([N+](=O)[O-])cc([N+](=O)[O-])c1N(CCCl)CCCl (configuration not stated)	75
CS(=O)(=O)CCN(CCCl)c1cc(C(N)=O)c([N+](=O)[O-])cc1[N+](=O)[O-]	> 295
NC(=O)c1cc(N2CC2)c([N+](=O)[O-])cc1[N+](=O)[O-] [TRETAZICAR]	177
O=C(NCC(O)CO)c1cc(N(CCI)CCI)c([N+](=O)[O-])cc1[N+](=O)[O-] (configuration not stated)	417
NC(=O)c1cc([N+](=O)[O-])cc([N+](=O)[O-])c1N(CCBr)CCBr	92
CS(=O)(=O)CCN(CCS(C)(=O)=O)c1cc(C(N)=O)c([N+](=O)[O-])cc1[N+](=O)[O-]	> 110
